Laboratory results reported in paper PMC2783173 (Journal of molecular biology, 2009).

Biological target: the molecule itself
Assay: split reporter

B1: HIV-1 Nef (SF2) G2A (myristoylation defective), YFP BiFC fusions (natural protein)
chain: not shown
% decrease in BiFC relative to WT: 0%
